A mixed list of measured activities; the numbers were collected in NIAID ChemDB.

Common to all: growth or infection tests; agent: Hepatitis C virus; read-out: inhibition

Conditions beyond the fields shown may differ between rows. Blank or dashed fields: not listed here. Percent inhibition refers to the dose given; in toxicity tests it is the harm to the cells.

smiles,strain,cells,read by,tested at,result
O=C1NC(=O)c2c1c1c3ccccc3[nH]c1c1[nH]c3ccccc3c21,-,Huh7.5.1,-,1 µM,78%
CO[C@H]1[C@@H](O)[C@@H](C)O[C@H](O[C@H]2[C@H](Oc3cccc4c(O)c5c(=O)oc6ccc(C)c7c(=O)oc(c34)c5c67)O[C@H](C)[C@H](O)[C@@H]2O)[C@@H]1O,sg2a (JFH),Huh7-1,PCR,50 µM,<75%
O=c1cc(Sc2ccccc2F)c2cc(F)ccc2o1,-,Ava5,-,10 µM,23%
COc1c(CC=C(C)C)c(O)cc2oc(=O)c(-c3ccc(O)cc3O)cc12,2a,Huh7.5,microscopy / fluorescence,20 µg/mL,100%
O=c1cc(Sc2cc(Cl)ccc2Cl)c2cc(F)ccc2o1,-,Ava5,-,10 µM,37%
O=C(NO)c1cc2ccccc2[nH]1,GT1b,Huh7,luciferase / replicon,10 µM,41%
Nc1ccn([C@@H]2O[C@H](CO)[C@@H](O)[C@H]2O)c(=O)n1,-,Huh7,replicon,50 µM,40%
C[C@@]1(O)[C@H](O)[C@@H](CO)O[C@H]1c1c[nH]c2c(N)ncnc12,-,Hep3B-T5B,MTT,50 µg/mL,7.84%
CC(Cc1ccc(O)c(O)c1)C(C)Cc1ccc(O)c(O)c1,BM45-Feo,Huh7,-,35 µM,60%
C[C@@]1(O)[C@H](O)[C@@H](CO)O[C@H]1n1cnc2c(N)ncnc21,GT1b,Huh7,replicon / PCR,0.5 µM,75%
Cc1cc(C)cc(Sc2c(Sc3cccc(Cl)c3)c3ccccc3oc2=O)c1,-,Ava5,-,10 µM,76.5%
Nc1nc2c(ncn2[C@@H]2O[C@H](CO)[C@@H](O)[C@H]2O)c(=O)[nH]1,-,Huh7,replicon,50 µM,86.5%
CC[C@H](C)C(=O)O[C@H]1C[C@@H](C)C=C2C=C[C@H](C)[C@H](CC[C@@H]3C[C@@H](O)CC(=O)O3)[C@H]21,-,HUH7-K2040,-,10 µM,0%
Brc1ccc(Cn2ccc3nc(-c4ccccc4)nc-3c2)cc1,-,-,-,80 µM,50%
Cc1cc(N2CCCCC2)nc2ccc(Cc3ccc4nc(N5CCCCC5)cc(C)c4c3)cc12,sg1b,Huh7-1,PCR,50 µM,<75%
Nc1nc2c(ncn2[C@H]2C[C@H](O)[C@@H](CO)O2)c(=O)[nH]1,-,Huh7,replicon,50 µM,89.3%
CCCC(NC(=O)[C@@H]1C2CCC(=O)C2CN1C(=O)[C@@H](NC(=O)[C@@H](NC(=O)c1cnccn1)C(C)C)C(C)C)C(=O)C(=O)Nc1ccccc1,-,Huh7,replicon,25 µM,<0%
CC(=N/O)/C(C)=N/O,sg1a (H77),Huh7-1,PCR,50 µM,<75%
CCNC(=O)n1c(O)c(C2=NS(=O)(=O)c3cc(NS(C)(=O)=O)ccc32)c(=O)n1-c1ccccc1,Genotype 4,-,-,10 µM,70%
CC(=O)OC1CCC2(C)C(CCC3C2CC(=O)C2(C)C3CC(N3CC3)C2C(C)=O)C1,sg1b,Huh7-1,PCR,50 µM,<75%
O=c1ccn([C@@H]2O[C@H](CO)[C@@H](O)[C@H]2O)c(=O)[nH]1,-,Huh7,replicon,50 µM,91.2%
C[C@H](Br)C(=O)c1ccc2cc(Br)c3ccccc3c2c1,sg1b,Huh7-1,PCR,50 µM,<75%
CCCCCCCCCCCCCCCc1cccc(O)c1C(=O)O,JFH-1 (gt 2a),Huh7,luciferase,1 µM,10%
COc1cc2oc(=O)c(-c3ccc(O)cc3O)cc2c(OC)c1CC=C(C)C,2a,Huh7.5,microscopy / fluorescence,15 µg/mL,18.4%
O=C1c2c(O)cc(O)cc2O[C@H](c2ccc(O)c(O)c2)[C@H]1O,G1,Huh7,PCR,0.1 µM,32%
Cc1cc(N2CCOCC2)nc2ccc(Cc3ccc4nc(N5CCOCC5)cc(C)c4c3)cc12,sg1a (H77),Huh7-1,PCR,50 µM,<75%
O=c1cc(Sc2ccccc2Cl)c2cc(F)ccc2o1,-,Ava5,-,10 µM,10.5%
C[C@@]1(O)[C@H](O)[C@@H](CO)O[C@H]1n1ccc2c(N)ncnc21,-,Hep3B-T5B,MTT,10 µg/mL,1.01%
COC(=O)N[C@H](C(=O)N1CCC[C@H]1c1ncc(-c2ccc(-c3ccc(-c4cnc([C@@H]5CCCN5C(=O)[C@@H](NC(=O)OC)C(C)C)[nH]4)cc3)cc2)[nH]1)C(C)C,1b Con1,Huh7,luciferase / replicon,0.00004 µM,86.67%
CN(C)CCCn1cc(C2=C(c3c[nH]c4ccccc34)C(=O)NC2=O)c2ccccc21,-,Huh7.5.1,-,1 µM,40%

Repeating the final 3 entries:

smiles,strain,cells,read by,tested at,result
C[C@@]1(O)[C@H](O)[C@@H](CO)O[C@H]1n1ccc2c(N)ncnc21,-,Hep3B-T5B,MTT,10 µg/mL,1.01%
COC(=O)N[C@H](C(=O)N1CCC[C@H]1c1ncc(-c2ccc(-c3ccc(-c4cnc([C@@H]5CCCN5C(=O)[C@@H](NC(=O)OC)C(C)C)[nH]4)cc3)cc2)[nH]1)C(C)C,1b Con1,Huh7,luciferase / replicon,0.00004 µM,86.67%
CN(C)CCCn1cc(C2=C(c3c[nH]c4ccccc34)C(=O)NC2=O)c2ccccc21,-,Huh7.5.1,-,1 µM,40%